Anti-infective test results gathered from many reports (values: NIAID ChemDB through PubChem).

Shared fields: tests in culture; agent: Mycobacterium tuberculosis

Blank or dashed fields: not listed here. Conditions beyond the fields shown may differ between rows. Inhibition is in % at the dose shown (toxicity tests: loss of growth or viability). A number after MIC or MFC names an inhibition level or a share of isolates. ECn is the concentration giving n% inhibition of infection, replication or growth. MIC bound: limit read from a one-dose screen.

smiles,cells,setting,dose,strain or isolate,mutations,read by,endpoint,result
NNC(=O)c1ccc(-c2ccccc2)cc1,,,12.5 µg/mL,H37Rv,,BACTEC,inhibition,-4%
CN[C@@H]1[C@H](O[C@H]2[C@H](O[C@H]3[C@H](O)[C@@H](O)[C@H](N=C(N)N)[C@@H](O)[C@@H]3N=C(N)N)O[C@@H](C)[C@]2(O)C=O)O[C@@H](CO)[C@H](O)[C@H]1O,,pH 6,,H37Rv,,resazurin,MIC,0.8 µM
COc1nc2ccc(Br)cc2cc1C(c1ccccc1)C(O)(CCN(C)C)c1cccc(C(F)(F)F)c1,,,,H37Rv,,,MIC90,0.36 µg/mL
Cc1c(CN2CCN(C)CC2)c(CN2CCN(C)CC2)c(-c2ccc(Cl)cc2)n1Cc1ccccc1,,,,H37Rv,,,MIC,<12.5 µg/mL
Cn1cnc2c(NC(=O)Nc3ccccc3)nc(Cl)cc21,,,,H37Rv,,visual reading,MIC99,25 µM
CCCCCCn1c(C)cc(CN2CCN(C)CC2)c1C,,,12.5 µg/mL,H37Rv,,,inhibition,82%
Cc1cc(NC(=O)c2cc(F)ccc2O)no1,,,,My 331/88,,,MIC,250 µM
COc1ccc2c(c1)[n+]([O-])c(-c1ccccc1)c(N)[n+]2[O-],VERO,,,H37Rv,,,MIC,3.1 µg/mL
COc1nc2ccc(Br)cc2cc1C(c1ccccc1)C(O)(CCN(C)C)c1ccc(N2CCOCC2)cc1,,,,H37Rv,,,MIC90,59.06 µg/mL
Cc1ccc(C2=CC(c3cccc(Oc4ccccc4)c3)N=C(N)N2)cc1,,,6.25 µg/mL,H37Rv,,resazurin,inhibition,71%
CCCCCCn1c(C)ccc1C,,,,103471,,,MIC,>16 µg/mL
Cn1cnc2c(NC(=O)c3ccccc3C(F)(F)F)nc(Cl)cc21,,,,H37Rv,,visual reading,MIC99,0.25 µM
CC(C)=CCc1cc(/C=C/C(=O)c2cc(CC=C(C)C)c(O)cc2O)ccc1O,,,,H37Rv,,resazurin,MIC,39.06 µg/mL
O=C(NNCc1ccccc1F)c1ccncc1,,,,H37Rv (kanamycin-resistant),,,MIC,2 µg/mL
COc1ccc(C(=O)Nc2cncs2)c(O)c1,,,,My 331/88,,,MIC,250 µM
CO[C@H]1/C=C/O[C@@]2(C)Oc3c(C)c(O)c4c(O)c(c(/C=N/N5CCN(C)CC5)c(O)c4c3C2=O)NC(=O)/C(C)=C\C=C\[C@H](C)[C@H](O)[C@@H](C)[C@@H](O)[C@@H](C)[C@H](OC(C)=O)[C@@H]1C,,,,XDR,,resazurin,MIC,>100 µg/mL
NC(=O)c1ccc[n+](CC(=O)Nc2ccccc2)c1.[Cl-],,,12.5 µg/mL,H37Rv,,BACTEC,inhibition,2%
Cn1cnc2c(NC(=O)c3ccc(Cl)cc3)nc(Cl)cc21,,,,H37Rv,,visual reading,MIC99,12.5 µM
O=C(NNCc1ccc(F)cc1)c1ccncc1,Macrophages,inside macrophages,,Erdman,,colony count,EC90,0.014 µg/mL
O=C(O)c1c2n(c3cc(N4CCN(Cc5ccc6c(c5)OCO6)CC4)c([N+](=O)[O-])cc3c1=O)CS2,,,,H37Rv,,agar,MIC,0.79 µM
Cc1ccc(S(=O)(=O)OCC2CCC(COS(=O)(=O)c3ccc(C)cc3)O2)cc1,,,,H37Rv,,BACTEC,MIC bound,>12.5 µg/mL
O=C(Nc1cnccn1)c1cc(Cl)ccc1O,,,,My 331/88,,,MIC,62.5 µM
CCCCN(C)CCNc1cc(C)nc(Nc2nc3ccc(Cl)cc3[nH]2)n1,,,,H37Rv,,BACTEC,MIC bound,<6.25 µg/mL
Cc1ccc(C(=O)Nc2cnccn2)c(O)c1,,,,My 331/88,,,MIC,16 µM
CC1(C)Oc2ccc(NC(=O)CCC(N)C(=O)O)cc2O1,,,,H37Rv,,BACTEC,MIC bound,>12.5 µg/mL
C#CCn1ncc2c(SCc3ccccc3)ncnc21,,,,H37Rv,,BACTEC,EC50,<12.5 µM
COc1ccc(CC2C3=C(CCCC3)CCN2c2cc3c(cc2F)c(=O)c(C(=O)O)c2n3CS2)cc1,,,,H37Rv,,agar,MIC,12.33 µM
COC1=C(NC(C)=O)C(=O)c2nc(-c3nc(C(=O)O)c(C)c(-c4ccc(OC)c(OC)c4O)c3N)ccc2C1=O,,,12.5 µg/mL,H37Rv,,BACTEC,inhibition,29%
Cc1ccc(-c2ccc(Cl)cc2)n1C1CCCCC1,,,,H37Rv,,,MIC,<12.5 µg/mL
O=C(C=Cc1cccc(Oc2ccccc2)c1)c1ccc([N+](=O)[O-])cc1,,,,H37Rv,,resazurin,MIC,0.75 µg/mL
O=C(O)c1cn(C2CC2F)c2c(Cl)c(N3CC4CCCNC4C3)c(F)cc2c1=O,,,,56 (RFP-resistant),,,MIC,3.13 µg/mL
O=C(O)c1c2n(c3cc(N4CCN(C(=O)C5COc6ccccc6O5)CC4)c(F)cc3c1=O)CS2,,,,H37Rv,,agar,MIC,6.29 µM
N[C@H]1CCN(c2nc3c(cc2F)c(=O)c(C(=O)O)cn3C2CC2)C1,Macrophages,inside macrophages,0.5 µg/mL,H37Rv,,,inhibition,65%
O=C(O)c1c2n(c3cc(N4CCSCC4)c(F)cc3c1=O)CS2,,,,H37Rv,,agar,MIC,4.43 µM
CC[C@H](CC[C@@H](C)[C@H]1CC[C@H]2[C@@H]3CC=C4C[C@@H](O[C@@H]5O[C@H](CO)[C@@H](O)[C@H](O)[C@H]5O)CC[C@]4(C)[C@H]3CC[C@]12C)C(C)C,,,,H37Rv,,BACTEC,MIC bound,>12.5 µg/mL
NNC(=O)c1ccncc1,,,,H37Rv,,,MIC,0.36 µM
CN1C[C@H](C(=O)N[C@]2(C)O[C@@]3(O)[C@@H]4CCCN4C(=O)[C@H](Cc4ccccc4)N3C2=O)C=C2c3cccc4[nH]cc(c34)C[C@H]21,,,,H37Rv,,BACTEC,MIC bound,>12.8 µg/mL
Cn1cnc2c(NS(=O)(=O)c3ccc(F)cc3)nc(Cl)cc21,,,,H37Rv,,visual reading,MIC99,12.5 µM
C/C(=N\NC(=O)c1ccncc1)c1ccc(F)cc1,,,,H37Rv (ethionamide-resistant),,,MIC,>32 µg/mL
Cc1c(CN2CCOCC2)cc(-c2ccc(Cl)cc2)n1Cc1ccccc1,,,,H37Rv,,,MIC,<12.5 µg/mL
COc1nc2ccc(Br)cc2cc1C(c1ccccc1)C(O)(CCN1CCCC1)c1ccc2ccccc2c1,,,,H37Rv,,,MIC90,46.19 µg/mL
CCC(C)Nc1c([N+](=O)[O-])cc(C(F)(F)F)cc1[N+](=O)[O-],,,,H37Rv,,BACTEC,MIC bound,>12.5 µg/mL
O=C(Nc1cncs1)c1ccc(Cl)cc1O,,,,My 331/88,,,MIC,16 µM
CN(C)CCC(O)(c1ccccc1)C(c1ccccc1)c1cnc2ccc(Br)cc2c1,,,,H37Rv,,,MIC90,47.54 µg/mL
Cc1c(N2CCN(C(=O)c3ccco3)CC2)c([N+](=O)[O-])cc2c(=O)c(C(=O)O)cn(-c3ccc(F)cc3F)c12,,,,H37Rv,,,MIC,40.43 µM
NC(=O)c1ccc(=S)[nH]c1,,,12.5 µg/mL,H37Rv,,BACTEC,inhibition,12%
O=C(NNCc1ccccc1)c1ccncc1,,,,Rifampicin-resistant,,,MIC,0.39 µg/mL
CCn1cc(C(=O)O)c(=O)c2cc(F)c(N3CCNCC3)cc21,,,,10 strains,,,MIC,≤8 µg/mL
Cc1c(N2CC3CCCNC3C2)c(F)cc2c(=O)c(C(=O)O)cn([C@@H]3C[C@@H]3F)c12,,,,50 (RFP-resistant),,,MIC,0.025 µg/mL
Cn1cnc2c(NC(=O)c3cccc(C(F)(F)F)c3)nc(Cl)cc21,,,,H37Rv,,visual reading,MIC99,0.25 µM
NC1=NC(c2cccc(Oc3ccccc3)c2)C=C(c2ccc(Cl)cc2Cl)N1,,,,H37Rv,,resazurin,MIC,9.094 µg/mL
O=C(O)c1c2n(c3cc(N4CCN(C(c5ccccc5)c5ccc(Cl)cc5)CC4)c(F)cc3c1=O)CS2,,,,H37Rv,,agar,MIC,11.66 µM
C=C1CC(OC(C)=O)/C=C(\C)CC[C@@H](C(C)(C)O)C[C@@H]1O,,,,H37Rv,,BACTEC,MIC bound,>12.5 µg/mL
Cc1c(CN2CCOCC2)c(CN2CCOCC2)c(-c2ccc(Cl)cc2)n1Cc1ccccc1,,,,H37Rv,,,MIC,<12.5 µg/mL
Cc1ccc(C(=O)Nc2ncn[nH]2)c(O)c1,,,,My 331/88,,,MIC,125 µM
CN(C)c1ccc(/C=N/NC(=O)c2ccco2)cc1,,,12.5 µg/mL,H37Rv,,BACTEC,inhibition,9%
O=C(Nc1cncs1)c1cc(F)ccc1O,,,,My 331/88,,,MIC,250 µM
Cc1c(N2COCC2(C)C)c([N+](=O)[O-])cc2c(=O)c(C(=O)O)cn(C3CC3)c12,,,,H37Rv,,,MIC,2.01 µM
Cn1cnc2c(NC(=O)Nc3cccc(Cl)c3)nc(Cl)cc21,,,,H37Rv,,visual reading,MIC99,12.5 µM
Cc1c(N2CCN(Cc3ccc4c(c3)OCO4)CC2)c([N+](=O)[O-])cc2c(=O)c(C(=O)O)cn(C(C)(C)C)c12,,,,H37Rv,,,MIC,23.92 µM
CC(=O)OC[C@]12CCC(C)=CC1O[C@@H]1[C@H](OC(C)=O)[C@@H](OC(C)=O)[C@@]2(C)C12CO2,,,,H37Rv,,BACTEC,MIC,≥12.5 µg/mL
NC1=NC(c2cccc(Oc3ccccc3)c2)C=C(c2ccc(Br)cc2)N1,,,6.25 µg/mL,H37Rv,,resazurin,inhibition,79%
Cc1ccc(-c2ccc(Cl)cc2)[nH]1,,,,103471,,,MIC,4 µg/mL
O=C1C(=Cc2ccccc2O)N=C(c2ccccc2)N1n1c(-c2ccccc2)nc2ccccc2c1=O,,,,H37Rv,,BACTEC,MIC bound,>12.5 µg/mL
S=C1NC(c2ccc(Cl)cc2Cl)=CC(c2cccc(Oc3ccccc3)c2)N1,,,6.25 µg/mL,H37Rv,,resazurin,inhibition,77%
O=C(N/N=C/c1ccccc1F)c1ccncc1,,,,H37Rv (rifampin-resistant),,,MIC,1 µg/mL
Cc1ccc(S(=O)(=O)NNC(=O)c2cccnc2)cc1,,,12.5 µg/mL,H37Rv,,BACTEC,inhibition,3%
O=C(O)c1c2n(c3cc(N4CCC(O)(c5ccc(Cl)cc5)CC4)c([N+](=O)[O-])cc3c1=O)CS2,,,,H37Rv,,agar,MIC,0.8 µM
Cn1cnc2c(NC(=O)c3cccc(C#N)c3)nc(Cl)cc21,,,,H37Rv,,visual reading,MIC99,25 µM
CCOC(=O)CCC(NC(=O)C(CCOC(=O)CC)NC(=O)C(Cc1ccc([N+](=O)[O-])cc1)NC(C)=O)C(=O)NNC(=O)OC(C)(C)C,,,12.5 µg/mL,H37Rv,,BACTEC,inhibition,2%
O=c1cc(-c2ccc(O)c(O)c2-c2c(O)cc(O)c3c(=O)cc(-c4ccc(O)cc4)oc23)oc2cc(O)cc(O)c12,,,,H37Rv,,resazurin,MIC,39.06 µg/mL
COc1nc2ccc(Br)cc2cc1C(c1ccccc1)C(O)(CCN(C)C)c1ccc(F)cc1,,,,H37Rv,,,MIC90,8.3 µg/mL
Cc1c(CN2CCN(C)CC2)cc(-c2ccc(Cl)cc2)n1C1CCCCC1,,,,H37Rv,,,EC50,<12.5 µg/mL
NNC(=O)c1ccncc1,,,,Clinical isolate 27,,resazurin / absorbance,MIC,0.03 µg/mL
NC(=S)NN=C1CSSC1,,,12.5 µg/mL,H37Rv,,BACTEC,inhibition,98%
CC(=O)Oc1ccccc1C(=O)Nc1ncc([N+](=O)[O-])s1,,,,LAM spoligotype 163,,visual reading,MIC,16 µg/mL
NC[C@H]1O[C@H](O[C@H]2[C@H](O)[C@@H](O[C@H]3O[C@H](CO)[C@@H](O)[C@H](N)[C@H]3O)[C@H](N)C[C@@H]2N)[C@H](N)[C@@H](O)[C@@H]1O,,,,H37Rv,Kanamycin-resistant rKM,resazurin,MIC,>10.2 µM
Cc1coc(NS(=O)(=O)c2ccc(N=Nc3cc(N=Nc4ccccc4)c(N)nc3N)cc2)c1C,,,12.5 µg/mL,H37Rv,,BACTEC,inhibition,20%
C/C=C/c1ccc2oc(-c3ccc(O)c(OC)c3)c(C)c2c1,,,,Clinical isolate 17,Isoniazid-resistant,resazurin / absorbance,MIC,3.9 µg/mL
C=C1C(=O)O[C@H]2/C=C(/CO)[C@H](OC(C)=O)C[C@H](O)/C(C)=C\[C@H](OC(=O)[C@@H](C)CC)[C@H]12,,,,H37Rv,,BACTEC,MIC,≥12.5 µg/mL
CC(NNC(=O)c1ccncc1)c1ccc(Cl)c(Cl)c1,,,,H37Rv (thiacetazone-resistant),,,MIC,>31.25 µg/mL